Mtb glucose medium: 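Whole-cell growth test on Mycobacterium tuberculosis, read after 3 days in glucose-containing 7H9 medium; the read-out is not stated. Tested at 500 µM. The record gives no direction; compounds that gave an IC50 in retests scored well above the rest, so higher reads as more growth inhibition. Of about 18,000 compounds tested this way, about 1,400 (7.9%) reached 50% or more in at least one test.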
Mtb cholesterol medium: 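Growth of Mycobacterium tuberculosis over 4 days (cholesterol / DPPC medium with tyloxapol); the read-out is not stated. Tested at 500 µM. Direction is inferred from retests: higher values go with more growth inhibition. Of about 18,000 compounds tested this way, about 900 (5%) reached 50% or more in at least one test.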

The filed quantity is “Percent Effect” (%). How 0% and 100% were set is not recorded. Most values in the screen are low, and negative values occur. This is part of a subset picked to be rich in strong results. A dash means the value is not listed here; it may have been measured.

compound,Mtb glucose medium,Mtb cholesterol medium
Cc1ccccc1-n1nnnc1SCC(=O)NC1CC1,59.26,24.71
CCOC(=O)Cc1nc2nc(C)cc(C)n2n1,7.134,-
CNCCCNC(=O)c1ccc(C(C)=O)cc1,-,7.002
CNCCCNS(C)(=O)=O,-,-3.415
Cc1c(O)cccc1C(=O)NC1CCOC1 (stereo not shown),-13.39,-
COc1ccc(Nc2ncccc2S(N)(=O)=O)cc1,45.26,55.66
CCSCCC(=O)N1CCC(c2nnc[nH]2)CC1,-,-5.648
Cn1ccc(C(=O)N2CCC2c2ccccc2)cc1=O (stereo not shown),14.23,-
CNC(=O)CSc1nccn1Cc1ccco1,4.668,-19.68
CN1CCCN(C(=O)NCCCn2cccn2)CC1,2.66,-
CCN(Cc1ccncc1)C(=O)C1CCCNCC1 (stereo not shown),-,-1.257
Nc1ncn(Cc2cccc(Cl)c2)n1,21.6,-
CCOc1ccccc1NC(=O)CSc1c[nH]nn1,-,51.91
OCC(O)c1cc2n(n1)CCN(Cc1ccoc1)C2 (stereo not shown),-9.073,-
CS(=O)(=O)CC1(CNCc2cccs2)CC1,7.783,-
CCc1nnsc1C(=O)NC(C)CN1CCOCC1 (stereo not shown),-,-8.528
Cc1ccccc1Oc1ccnc(CN)c1,-,-14.5
CN1CCN(Cc2cccc3c2OCO3)CC1,-,7.843
Cc1nn(C)c(C)c1CCC(=O)NC(CCO)C1CC1 (stereo not shown),-,-4.802
COc1cc(CNC(=O)CSc2nccn2C)ccn1,29.06,4.007
COc1cc(OC)c(NC(=O)N(C)C)cc1Cl,15.01,-
CC(C)c1cc(N)[nH]n1,55.18,19.3
COc1ccc2c(c1)CCCN2C(=O)CSC,45.28,31.38
O=C(CS(=O)(=O)Cc1cccc(Cl)c1)NCC1CC1,67.32,53.52
CNC(=O)[C@@H]1CCCN1CC1CCNCC1,5.695,-
Cn1cc(C(=O)NCc2ccccc2)cn1,40.77,-
CCN(CC1CCOC1)S(=O)(=O)c1cnn(C)c1 (stereo not shown),4.672,-
CN(Cc1ccc(N)nc1)c1cccc(C#N)n1,42.95,-
O=C(NCc1ccc2c(c1)OCO2)Nc1nccs1,60.03,-
CN(Cc1cccc2cnccc12)C(=O)CNC(N)=O,-,-5.982
Cn1ncc(N[C@@H]2C=C[C@H](CO)C2)c(Cl)c1=O,7.391,-
CC(=O)c1ccc(C(=O)N[C@@H]2CS(=O)(=O)C[C@H]2O)s1,5.167,-
Cc1nnc(C(C)NC(=O)c2ccc(CO)cc2)o1 (stereo not shown),-2.334,-
CC(C)(C)OC(=O)N1CCC(CN)C(F)(F)C1 (stereo not shown),-6.268,-
O=C(Nc1ccccn1)C1Cc2ccccc2O1 (stereo not shown),85.64,-6.401
c1cnc2cc(-c3nc(C4CCOC4)no3)nn2c1 (stereo not shown),-,5.698
Cc1ccc(F)cc1NC(=O)NCC(=O)N1CCCC1,-5.993,-
O=C(CCc1ncc[nH]1)Nc1nc2ccccc2[nH]1,-12.63,-
CCC(C)[C@H](NC(=O)N1CCCC1)C(N)=O (stereo partly shown),-,-11.81
N#Cc1ccc(OCCN2CCCS2(=O)=O)cc1,2.883,-
COc1ncccc1NS(=O)(=O)c1cccc(Cl)c1,-15.38,-12.27
Cc1cccc(NC(=O)CN(C)C2CCS(=O)(=O)C2)n1 (stereo not shown),-3.232,-
CC(C)C(NC(=O)CN1CCCC1=O)c1ccccn1 (stereo not shown),-,-16.51
O=C(CN1CCOCC1)c1cccc(Cl)c1,13.97,-
NC1CCN(c2ccccc2F)C1 (stereo not shown),9.58,-
COC(=O)c1csc(NC(=O)CCn2cccn2)c1,57.84,-
CCc1ccc(S(=O)(=O)N2CC[C@@H](N)C2)cc1CC,73.3,52.4
CCNc1nc2c([nH]1)c(=O)n(C)c(=O)n2C,4.776,-
CC(CC#N)NS(=O)(=O)Cc1ccc(F)cc1 (stereo not shown),4.837,-
NCC(O)CS(=O)(=O)c1cccs1 (stereo not shown),-,10.8
Cc1cccc(Cl)c1OCCN,55.44,29.28
O=C(CCc1ccncc1)N1CCCCC1,-,21.28
Cc1ccnc2nc(C(=O)NC(C#N)CC(C)C)nn12 (stereo not shown),-,3.647
CCCc1cc(N)[nH]n1,27.31,12.6
CC(=O)N1CCC(CNC(=O)Nc2ccc(C)s2)CC1,-,-5.72

The values are deposited in ChEMBL (CHEMBL3988442, “University of Dundee, Small-Polar-MMV Screening Library” (2021)).